Laboratory results: patent US20070275953A1 (priority 2003, published 2007)

Tested on: HIV-1 with WT (wild type) RT in P4 cells
Assay: Anti-HIV assay on P4 cell line, WT RT
Format: cell-based

| SMILES | SI (selectivity index = CC50/EC50) |
| --- | --- |
| CCOC(=O)c1c(OC2CCCCCCC2)c(CC)c(C)[nH]c1=O [Z54] | 43 |
| CCc1c(C)[nH]c(=O)c(C)c1OC1CC(C)CC(C)C1 (centres unmarked) [Z154] | >80000 |
| CCc1c(C)[nH]c(=O)c(CO)c1OC1CC(C)CC(C)C1 (centres unmarked) [Z45inv] | 3304 |
| CCOC(=O)c1c(OC2CCCCC2Cl)c(CC)c(C)[nH]c1=O (centres unmarked) [Z12] | >32 |
| CCOC(=O)c1c(OC2CC(C)CC(C)C2)c(CC)c(C)[nH]c1=O (single isomer, unassigned) [Z37A] | 263 |
| CCOC(=O)c1c(OC2CCCCCC2)c(CC)c(C)[nH]c1=O [Z25] | 168 |
| CCOC(=O)c1c(OC2CC(C)CC(C)C2)c(CC)c(C)[nH]c1=O (single isomer, unassigned) [Z37inv] | 1778 |
| CCOC(=O)c1c(OC2CCCC(C)C2)c(CC)c(C)[nH]c1=O (centres unmarked) [Z30] | >192 |
| CCc1c(C)[nH]c(=O)c(CSCCOC(=O)CCl)c1OC1CC(C)CC(C)C1 (centres unmarked) [Z122] | 27500 |
| CCc1c(C)[nH]c(=O)c(CSC(C)=O)c1OC1CC(C)CC(C)C1 (centres unmarked) [Z114] | 1143 |
| CCc1c(C)[nH]c(=O)c(CN=[N+]=[N-])c1OC1CC(C)CC(C)C1 (centres unmarked) [Z153] | >54000 |
